What was measured:
[1] = test system: P. falciparum Dd2 chloroquine-resistant strain; test: In vitro antiplasmodial activity, SYBR green I fluorescence assay; type: cell-based, Plasmodium falciparum; settings: selectivity index = CC50 (HOE) / IC50 against P. falciparum Dd2
Protocol: Normalized fluorescence signals were measured against controls with 1% DMSO (100% growth) and after exposure to a supralethal concentration (10 μM) of chloroquine (0% growth). Determination of the 50% inhibitory concentration (IC50) was performed from a log concentration versus the mean normalized fluorescence signal curve using GraphPad Prism software (v5.0). Each biological replicate consisted of three technical repeats, with three independent biological replicates performed.

[2] = test system: human oral epidermoid carcinoma (KB) cells; test: Cytotoxicity in KB cells (previous report); type: cell-based; settings: selectivity index = CC50 (KB or HCT-116) / IC50 against P. falciparum W2

## COc1cc2c3c4c1Oc1cc5c(cc1O4)C(Cc1ccc(O)c(c1)Oc1ccc(cc1)CC3NCC2)N(C)CC5 (centres unmarked) [2′-Norcocsuline (3), 2′-norcocsuline]
[1]
  SI HOE/Dd2: 1.1

## COc1cc2c3c(c1OC)Oc1ccc(cc1)C[C@H]1c4c(c(CN(C)C)c(OC)c(OC)c4Oc4ccc(cc4)C[C@@H]3N(C)CC2)CCN1C [5-[(Dimethylamino)methyl]cycleanine (4), 5-[(Dimethylamino)methyl]cycleanine]
[1]
  SI HOE/Dd2: 14.3

## C#CCNCc1c2c3c(c(OC)c1OC)Oc1ccc(cc1)C[C@H]1c4c(cc(OC)c(OC)c4Oc4ccc(cc4)C[C@@H]3N(C)CC2)CCN1C [5-[(Propargylamino)methyl]cycleanine (5), 5-[(Propargylamino)methyl]cycleanine]
[1]
  SI HOE/Dd2: 17.8

## COc1cc2c3c(c1O)Oc1ccc(cc1)C[C@@H]1c4c(cc(OC)c(O)c4Oc4ccc(cc4)C[C@H]3N(C)CC2)CCN1C [Isochondodendrine (2), isochondodendrine]
[1]
  SI HOE/Dd2: 1.7

## cycleanine
[2]
  SI KB/W2: >133

From publication PMC7848973, “In Vivo Efficacy and Metabolism of the Antimalarial Cycleanine and Improved In Vitro Antiplasmodial Activity of Semisynthetic Analogues” (Antimicrobial Agents and Chemotherapy, 2021)
